A mixed list of measured activities; the numbers were collected in NIAID ChemDB.

All rows: growth or infection tests; species: Mycobacterium fortuitum

Neighbouring rows are from separate reports.

| SMILES | strain or isolate | method | endpoint | tested at | result |
|---|---|---|---|---|---|
| CCn1cc(C(=O)O)c(=O)c2cc(F)c(N3CCC(CNC)C3)nc21 | ATCC 6841 |  | MIC |  | 0.25 µg/mL |
| CC[C@H]1OC(=O)[C@H](C)[C@@H](O[C@H]2C[C@@](C)(OC)[C@@H](O)[C@H](C)O2)[C@H](C)[C@@H](O[C@@H]2O[C@H](C)C[C@H](N(C)C)[C@H]2O)[C@](C)(OC)C[C@@H](C)C(=O)[C@H](C)[C@@H](O)[C@]1(C)O | 48 strains |  | MIC90 |  | 64 µg/mL |
| N/C(=N\N=C\c1cccc2ccccc12)c1ccccn1 |  |  | EC50 |  | >1000 µM |
| Nc1ccc(C(=O)O)c(O)c1 | 198 strains | agar | inhibition | 2 µg/mL | <1% |
| CO[C@@H]1[C@@H](O[C@@H]2O[C@H](C)[C@@H](O[C@H]3C[C@@](C)(O)[C@@H](OC(=O)CC(C)C)[C@H](C)O3)[C@H](N(C)C)[C@H]2O)[C@@H](CC=O)C[C@@H](C)[C@@H](O)/C=C/C=C/C[C@@H](C)OC(=O)C[C@H]1OC(C)=O | 48 strains |  | MIC50 |  | >64 µg/mL |
| CCn1cc(C(=O)O)c(=O)c2cc(F)c(N3CCC(N)C3)nc21 | ATCC 6841 |  | MIC |  | 0.25 µg/mL |
| N/C(=N\N=C\c1ccccc1Sc1ccc(Cl)cc1)c1ccccn1 |  |  | EC50 |  | >100 µM |
| O=C(O)c1cn(-c2ccc(F)cc2F)c2c(F)c(N3CCNCC3)c(F)cc2c1=O | ATCC 6841 |  | MIC |  | 0.5 µg/mL |
| CC(C)(C)c1ccc(/C=N/N=C(\N)c2ccccn2)cc1 |  |  | inhibition | 100 µM | 1.1% |
| CC(C)(C)n1cc(C(=O)O)c(=O)c2cc(F)c(N3CCC(N)C3)nc21 | ATCC 6841 |  | MIC |  | ≤0.03 µg/mL |
| C[C@H]1COc2c(N3CCN(C)CC3)c(F)cc3c(=O)c(C(=O)O)cn1c23 | 48 strains |  | MIC50 |  | 0.06 µg/mL |
| N/C(=N\N=C1CCCCCCCCCCC1)c1ccccn1 |  |  | inhibition | 100 µM | 1.8% |
| NC(=O)c1cnccn1 | 198 strains | agar | EC50 |  | >25 µg/mL |
| O=C(O)c1cn(C2CC2)c2c(Cl)c(N3CCNCC3)c(F)cc2c1=O | ATCC 6841 |  | MIC |  | 0.06 µg/mL |
| O=Cc1cccc2ccccc12 |  |  | inhibition | 1000 µM | 7.5% |

A second listing of 2 rows from above:

| SMILES | strain or isolate | method | endpoint | tested at | result |
|---|---|---|---|---|---|
| C[C@H]1COc2c(N3CCN(C)CC3)c(F)cc3c(=O)c(C(=O)O)cn1c23 | 48 strains |  | MIC50 |  | 0.06 µg/mL |
| CC(C)(C)c1ccc(/C=N/N=C(\N)c2ccccn2)cc1 |  |  | inhibition | 100 µM | 1.1% |

MIC50, MIC90 and the like: level of inhibition, or share of isolates inhibited. ECn: concentration that inhibits the pathogen or its effect by n%. An empty or dashed field is not shown. Percent inhibition refers to the dose given; in toxicity tests it is the harm to the cells.